Results of unrelated studies side by side (data: NIAID ChemDB).

Common to all: growth or infection tests; organism: Influenza A virus; measure: EC50

a–b is a range or a potency band. Neighbouring rows are from separate reports. Blank or dashed fields: not listed here. ECn is the concentration giving n% inhibition of infection, replication or growth.

smiles | strain or isolate | read by | cells | value
Nc1nc(N)c(N)c(Cl)n1 | H1N1 A/PR/8/34 | plaque count | MDCK | >630 µM
CCCOc1nc2c(nc(N)n2[C@@H]2O[C@H](CO)[C@@H](O)[C@H]2F)c(=O)[nH]1 | A/Sweden | plaque count | MDCK | 36 µM
CC(C)C1CC(CO)(CNc2nc(N)nc(Cl)c2C=O)C1 | H1N1 A/PR/8/34 | plaque count | MDCK | 10–20 µM
Nc1ccn([C@@H]2O[C@H](CO)[C@@H](O)[C@H]2F)c(=O)n1 | A/Sweden | plaque count | MDCK | 2.6 µM
Nc1nc(Cl)cc(NCC2(CO)CCC(OCc3ccccc3)C2)n1 | H1N1 A/PR/8/34 | plaque count | MDCK | 1–1.2 µM
COc1ncc2ncn([C@@H]3O[C@H](CO)[C@@H](O)[C@H]3F)c2n1 | Recombinant A/X31 | virus yield | CEF | 1.2 µM
CCC(CC)(CO)CNc1cc(Cl)nc(N)n1 | H1N1 A/PR/8/34 | plaque count | MDCK | 190 µM
C/C=C\[C@@H]1C[C@H](C(=O)O)N[C@H]1[C@@H](NC(C)=O)[C@](C)(CCC)OC | H1N1 isolate C31D | plaque count | MDCK | ≤0.02 µg/mL
CCC(CC)[C@H](NC(C)=O)[C@@H]1[C@H](O)[C@@H](C(=O)O)C[C@H]1N=C(N)N | Influenza A/Washington/05/96 (H3N2) | visual reading | MDCK | 0.01 µM
Nc1nc2c(ncn2[C@@H]2O[C@H](CO)[C@@H](O)[C@H]2F)c(=O)[nH]1 | H3N2 A/HONG KONG/1/68 | plaque count | MDCK | 10 µM
Nc1nc(Cl)cc(NCC2(CO)CC2)n1 | H1N1 A/PR/8/34 | plaque count | MDCK | >440 µM
CCCC(CCC)C(NC(C)=O)C1CC(C(=O)O)CC1N=C(N)N | Influenza A/Sydney/05/97 (H3N2) |  | MDCK | 0.22 µM
CN(CC1(CO)CCC1)c1cc(Cl)nc(N)n1 | H1N1 A/PR/8/34 | plaque count | MDCK | >120 µM
COc1nc2c(nc(N)n2[C@@H]2O[C@H](CO)[C@@H](O)[C@H]2F)c(=O)[nH]1 | Recombinant A/X31 | virus yield | CEF | 0.4 µM
CC(=O)N[C@H]1[C@H]([C@H](O)[C@H](O)CO)OC(C(=O)O)=C[C@@H]1N=C(N)N | H3N2 A/X-31 |  | MDCK | 0.4 µM
CCC | Shanghai/11/87 (H3) |  | MDCK | >500 µM
CCC(CC)[C@H](NC(C)=O)[C@@H]1C[C@@H](C(=O)O)C[C@H]1N=C(N)N | H1N1 A/Bayern/07/95 |  | MDCK | 0.64 µM
CC(N)C12CC3CC(CC(C3)C1)C2 | Influenza A/Guizhou/54/89 (H3N2) | ELISA | VERO | 0.012 µg/mL

The first 2 rows once more:

{"smiles": "Nc1nc(N)c(N)c(Cl)n1", "strain or isolate": "H1N1 A/PR/8/34", "read by": "plaque count", "cells": "MDCK", "value": ">630 µM"}
{"smiles": "CCCOc1nc2c(nc(N)n2[C@@H]2O[C@H](CO)[C@@H](O)[C@H]2F)c(=O)[nH]1", "strain or isolate": "A/Sweden", "read by": "plaque count", "cells": "MDCK", "value": "36 µM"}